Data reported in US10119079B2, “Composition for removal of sulfur-containing compounds” (KURARAY CO., LTD., priority 2014, dated 2018).

Test system: activated sludge
Assay: Biodegradability test (OECD Test Guidelines 301C, JIS K6950)
Conditions: for biodegradation ratio for 28 days (average) / biodegradation ratio for 28 days (individual runs, n=2): 25° C.; for degradability decision (60% or more = good degradable): 28 days
[1] = high-concentration group (100 ppm)
[2] = low-concentration group (30 ppm)

O=CCCCC=O [Glutaraldehyde, glutaraldehyde]
biodegradation ratio for 28 days (average) [1]: 52.6% | biodegradation ratio for 28 days (individual runs, n=2) [1]: 52.7% and 52.5% | degradability decision (60% or more = good degradable) [1]: partial degradability (hardly degradable) | biodegradation ratio for 28 days (average) [2]: 78.0% | biodegradation ratio for 28 days (individual runs, n=2) [2]: 78.5% and 77.5% | degradability decision (60% or more = good degradable) [2]: good degradability

“And” between values parts separate entries of the source, which are not always exact repeats. Equal values may be shown once.
